A mixed list of measured activities; the numbers were collected in NIAID ChemDB.

Shared fields: tests in culture; species: Candida albicans

An empty or dashed field is not shown. Zone: diameter of growth inhibition. A number after MIC or MFC names an inhibition level or a share of isolates. Conditions beyond the fields shown may differ between rows.

{"structure": "Cl.NC1CCN(c2c(F)cn3c(=O)c(C(=O)O)cc(C4CC4)c3c2F)C1", "strain": "CCH442", "measure": "MIC", "value": ">100 µg/mL"}
{"structure": "CC1=[N+](Cc2ccc(Br)cc2)CCc2cc3c(cc21)OCO3.[Br-]", "strain": "Clinical isolate", "changes": "Fluconazole-resistant", "method": "broth dilution", "measure": "MIC80", "value": ">64 µg/mL"}
{"structure": "C[C@H](Cc1ccc(O)c(O)c1)[C@@H](C)Cc1ccc(O)c(O)c1", "strain": "ATCC 10231", "method": "broth dilution", "measure": "MIC80", "value": "250 µg/mL"}
{"structure": "C[C@@H]1[C@H](O)[C@@H](C)/C=C/C=C/CC/C=C/C=C/C=C/C=C/C(O[C@H]2O[C@H](C)[C@@H](O)[C@H](N)[C@@H]2O)CC2O[C@](O)(CC(O)C(O)CCC(O)CC(O)CC(O)CC(=O)O[C@H]1C)CC(O)C2C(=O)O", "strain": "MTCC 183", "method": "agar diffusion / agar", "measure": "zone", "tested at": "20 µg/disc", "value": "0 mm"}
{"structure": "COc1ccc2c(Cc3cccc(C)c3)c3[n+](cc2c1OC)CCc1cc2c(cc1-3)OCO2.[Br-]", "strain": "Clinical isolate", "changes": "Fluconazole-resistant", "method": "broth dilution", "measure": "MIC80", "value": "32 µg/mL"}
{"structure": "C[C@@H]([C@H]1CC[C@H](C)C(=O)C1)[C@H]1CC[C@]2(C)C3=C(CC[C@@]12C)[C@]1(C)CC[C@H](O)C(C)(C)[C@H]1CC3", "strain": "MTCC 183", "method": "agar diffusion / agar", "measure": "zone", "tested at": "0.25 µg/disc", "value": "10 mm"}
{"structure": "CNCC1CCCN(c2c(F)cn3c(=O)c(C(=O)O)cc(C4CC4)c3c2C)C1.Cl", "strain": "CCH442", "measure": "MIC", "value": ">100 µg/mL"}
{"structure": "CC(=O)N1CCN(c2ccc(OC[C@H]3CO[C@](Cn4ccnc4)(c4ccc(Cl)cc4Cl)O3)cc2)CC1", "strain": "Isogenic isolate 14 Erg11 (4-5X) R467K", "measure": "MIC", "value": "0.03 µg/mL"}
{"structure": "COc1ccc2c(Cc3ccccc3[N+](=O)[O-])c3[n+](cc2c1OC)CCc1cc2c(cc1-3)OCO2.[Br-]", "strain": "Clinical isolate", "changes": "Fluconazole-resistant", "method": "broth dilution", "measure": "MIC80", "value": "32 µg/mL"}
{"structure": "Cc1c(N2CC(N)C(O)C2)c(F)cn2c(=O)c(C(=O)O)cc(C3CC3)c12.Cl", "strain": "CCH442", "measure": "MIC", "value": "100 µg/mL"}
{"structure": "O=C(Cc1ccc(O)cc1)NCCc1ccc2c(c1)OCO2", "strain": "Clinical isolate", "changes": "Fluconazole-resistant", "method": "broth dilution", "measure": "MIC80", "value": ">64 µg/mL"}
{"structure": "OC(Cn1cncn1)(Cn1cncn1)c1ccc(F)cc1F", "strain": "YL 363", "method": "broth dilution", "measure": "MIC", "value": ">512 µg/mL"}
{"structure": "Cc1c(N2CCC(c3ccccn3)C2)c(F)cn2c(=O)c(C(=O)O)cc(C3CC3)c12.Cl", "strain": "CCH442", "measure": "MIC", "value": ">100 µg/mL"}
{"structure": "COc1ccc2c(Cc3cccc([N+](=O)[O-])c3)c3[n+](cc2c1OC)CCc1cc2c(cc1-3)OCO2.[Br-]", "strain": "Clinical isolate", "changes": "Fluconazole-resistant", "method": "broth dilution", "measure": "MIC80", "value": ">64 µg/mL"}
{"structure": "Cc1c(N2C[C@@H]3CCC[C@@H](N)[C@H]3C2)c(F)cn2c(=O)c(C(=O)O)cc(C3CC3)c12.Cl", "strain": "CCH442", "measure": "MIC", "value": "50 µg/mL"}
{"structure": "C[C@@H]1[C@H](O)[C@@H](C)/C=C/C=C/CC/C=C/C=C/C=C/C=C/C(O[C@H]2O[C@H](C)[C@@H](O)[C@H](N)[C@@H]2O)CC2O[C@](O)(CC(O)C(O)CCC(O)CC(O)CC(O)CC(=O)O[C@H]1C)CC(O)C2C(=O)O", "strain": "LM 42V", "method": "broth dilution", "measure": "MFC100", "value": "64 µg/mL"}

For reference, 2 entries again:

structure	strain	changes	method	measure	tested at	value
COc1ccc2c(Cc3cccc(C)c3)c3[n+](cc2c1OC)CCc1cc2c(cc1-3)OCO2.[Br-]	Clinical isolate	Fluconazole-resistant	broth dilution	MIC80		32 µg/mL
C[C@H](Cc1ccc(O)c(O)c1)[C@@H](C)Cc1ccc(O)c(O)c1	ATCC 10231		broth dilution	MIC80		250 µg/mL